Measurements from patent US9181251B2, “Anti-malarial compounds from marine natural products” (University of Central Florida Research Foundation, Inc., priority 2012, dated 2015).

System: P. falciparum chloroquine-resistant Dd2 strain
Assay: Antiplasmodial activity, SYBR Green I fluorescence-based assay
Format: cell-based
Description: Fractions were derived from 20 different marine species. […] All fractions were then analyzed by LC-MS to identify active extracts with the greatest potential for novelty.
Antiplasmodial activity was tested in P falciparum chloroquine resistant Dd2, and the cytotoxicity was assessed in NIH 3T3 fibroblasts cells.
Asynchronous cultures were exposed to different concentrations of inhibitor for 72 hrs. […] The cytotoxicity against NIH 3T3 fibroblasts was evaluated using an MTS assay [(3-(4,5-dimethylthiazol-2-yl)-5-(3-carboxymethoxyphenyl)-2-(4-sulfophenyl)-2H-tetrazolium), CellTiter 96® Aqueous non-radioactive cell proliferation assay, Promega

`C/C1=C\CC(C)(C)/C=C/C(=O)[C@@H](C)CCC[C@H](C)CC(=O)C1` [Compound 3] was tested, and the SI (selectivity index given beside the IC50) was over 64.
With `O=C1N[C@@H](c2c[nH]c3cc(Br)ccc23)CN=C1c1c[nH]c2cc(Br)ccc12` [Hamacanthin A 7, Hamacanthin A] the “ratio of a NIH 3T3 IC50 value to a P. falciparum IC50 value” (from Table 2) was “at least 9”.
